According to ChEMBL document CHEMBL1149314, “Synthesis of AZT 5'-triphosphate mimics and their inhibitory effects on HIV-1 reverse transcriptase” (J Med Chem, 2004):

Assay: Inhibition of HIV1 reverse transcriptase
Set-up: species or system Human immunodeficiency virus 1
Outline: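 HIV reverse transcriptase (type B, 66 kDa subunit) at 2 nM with 1 µg/mL primed poly(A) RNA and 5 µM dTTP, in 50 mM Tris-HCl pH 8.1, 6.5 mM MgCl2, 100 mM NaCl and 10 mM DTT. Compounds were tested up to 500 µM final. Reactions were started with enzyme, run 10 min at 37 °C and stopped with EDTA. DNA was read by PicoGreen fluorescence (ex 480/em 538 nm), with no-enzyme or no-dTTP blanks. Percent inhibition was blank-corrected; Ki came from titration fitted to a competitive model.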

Work on `Cc1cn([C@@H]2C[C@@H](N=[N+]=[N-])[C@H](COP(=O)(O)OP(=O)(O)C(F)(F)P(=O)(O)F)O2)c(=O)[nH]c1=O` yielded a Ki of 852 nM.
